Measurements reported in patent US10588608B2, “Sampling systems and related materials and methods” (Progenity Inc., priority 2016, dated 2020).

How the values were obtained:
IgA = test: ELISA assay compatibility of preservatives: IgA detection; parameters: species or system human; details: in SDJ; FIGS. 46, 48
IgM = test: ELISA assay compatibility of preservatives: IgM detection; parameters: species or system human; details: in SDJ; FIGS. 47, 49

Row | SMILES | effect on IgA detection by ELISA (IgA) | effect on IgM detection by ELISA (IgM)
1 | O=C(O)CC(O)(CC(=O)O)C(=O)O [citric acid] | responsible for the IgA and IgM ELISA assay inhibition | responsible for the IgA and IgM ELISA assay inhibition
2 | C/C=C/C=C/C(=O)O [sorbic acid] | responsible for the IgA and IgM ELISA assay inhibition | responsible for the IgA and IgM ELISA assay inhibition
